Measured values from several laboratories, pooled; numbers as filed in NIAID ChemDB.

All rows: whole-cell or culture tests; agent: Mycobacterium tuberculosis

Lines come from different laboratories, so protocols vary.

{"SMILES": "Nc1nc(N)c(N=Nc2ccc(C(=O)O)cc2)c(=O)[nH]1", "tested at": "12.5 µg/mL", "strain or isolate": "H37Rv", "read by": "BACTEC", "endpoint": "inhibition", "result": "-10%"}
{"SMILES": "O=[N+]([O-])c1cccc(/C=C/c2ccc3ccccc3n2)c1", "strain or isolate": "H37Rv", "endpoint": "MIC", "result": ">100 µg/mL"}
{"SMILES": "COc1cc(OC)c(/C=C2\\N=C(c3ccccc3)OC2=O)c(OC)c1", "strain or isolate": "H37Rv", "read by": "BACTEC", "endpoint": "MIC bound", "result": ">12.5 µg/mL"}
{"SMILES": "C=CCNc1nc(Cl)nc(NCC=C)n1", "strain or isolate": "H37Rv", "endpoint": "MIC", "result": ">100 µg/mL"}
{"SMILES": "Clc1ccc(CCNCCNC2CCCCC2)c(Cl)c1", "endpoint": "MIC", "result": "50 µM"}
{"SMILES": "CCN(CC)CCSC(CC(=O)c1ccc(NC(C)=O)cc1)c1ccc(N(C)C)cc1.Cl", "strain or isolate": "H37Rv", "endpoint": "MIC", "result": ">100 µg/mL"}
{"SMILES": "NCC[C@H](O)C(=O)N[C@@H]1C[C@H](N)[C@@H](O[C@H]2O[C@H](CN)[C@@H](O)[C@H](O)[C@H]2O)[C@H](O)[C@H]1O[C@H]1O[C@H](CO)[C@@H](O)[C@H](N)[C@H]1O", "strain or isolate": "MDR18", "read by": "broth dilution / resazurin", "endpoint": "MIC", "result": "4 µg/mL"}
{"SMILES": "CNc1cccc2c1C(=O)c1ccc(Cl)cc1C2=O", "strain or isolate": "H37Rv", "endpoint": "MIC", "result": "100 µg/mL"}
{"SMILES": "CCOC(=O)Nc1cc(N/N=C/c2ccccc2)c2[nH]c(SCc3ccccc3)nc2n1", "strain or isolate": "H37Rv", "endpoint": "EC50", "result": "<12.5 µg/mL"}
{"SMILES": "Oc1ccc(CCNCCNCc2ccccc2F)cc1", "endpoint": "MIC", "result": "50 µM"}
{"SMILES": "Nc1ccc(O)c2c1C(=O)c1c(NCCO)ccc(NCCO)c1C2=O", "strain or isolate": "H37Rv", "endpoint": "MIC", "result": "100 µg/mL"}
{"SMILES": "CCOC(=O)Nc1cc(NC(c2ccccc2)c2ccccc2)c([N+](=O)[O-])c(NCC(=O)c2ccc(Cl)cc2)n1", "tested at": "12.5 µg/mL", "strain or isolate": "H37Rv", "endpoint": "inhibition", "result": "0%"}
{"SMILES": "O=C1NC(=O)C2C3OC(C(Cl)C3Cl)C12", "strain or isolate": "H37Rv", "read by": "BACTEC", "endpoint": "MIC bound", "result": ">12.5 µg/mL"}
{"SMILES": "CC(C)c1ccc2c(c1)CC[C@H]1[C@](C)(CNCCN[C@@H](C)C3CCCCC3)CCC[C@]21C", "endpoint": "MIC", "result": "25 µM"}
{"SMILES": "Cc1ccccc1C(=O)O", "strain or isolate": "H37Rv", "endpoint": "MIC", "result": ">100 µg/mL"}
{"SMILES": "NC1CCOC1=O", "strain or isolate": "H37Rv", "read by": "BACTEC", "endpoint": "MIC bound", "result": ">12.5 µg/mL"}
{"SMILES": "O=C(O)c1cc(Cl)ccc1O", "strain or isolate": "H37Rv", "endpoint": "MIC", "result": "50 µg/mL"}
{"SMILES": "Clc1ccc(OCc2nnc3n2N=C(c2ccccc2)CS3)c(Cl)c1", "tested at": "12.5 µg/mL", "strain or isolate": "H37Rv", "read by": "BACTEC", "endpoint": "inhibition", "result": "42%"}
{"SMILES": "CO[C@H]1/C=C/O[C@@]2(C)Oc3c(C)c(O)c4c(=O)c(c5oc6cc(N7CCN(C(C)C)CC7)cc(=O)c6nc5c4c3=C2O)NC(=O)/C(C)=C\\C=C\\[C@H](C)[C@H](O)[C@@H](C)[C@@H](O)[C@@H](C)[C@H](OC(C)=O)[C@@H]1C", "strain or isolate": "33 (rifampin-resistant)", "endpoint": "MBC", "result": "0.2 µg/mL"}
{"SMILES": "CCOC(=O)Nc1cc2c(c(N)n1)N=C(c1cc(OC)c(OC)c(OC)c1)CO2", "strain or isolate": "H37Rv", "endpoint": "EC50", "result": ">12.5 µg/mL"}
{"SMILES": "O=S(=O)(O)c1ccc2cc(O)c(S(=O)(=O)O)cc2c1", "strain or isolate": "H37Rv", "endpoint": "MIC", "result": ">100 µg/mL"}
{"SMILES": "Cc1cc(=O)[nH]c(/N=C(\\N)Nc2ccc(Cl)c(C(F)(F)F)c2)n1", "strain or isolate": "H37Rv", "read by": "BACTEC", "endpoint": "MIC bound", "result": ">12.5 µg/mL"}
{"SMILES": "Cc1cc(C)c(S(=O)(=O)c2c(C)cc(C)cc2C)c(C)c1", "strain or isolate": "H37Rv", "endpoint": "MIC", "result": ">100 µg/mL"}
{"SMILES": "CO[C@@H]1[C@@H](OC(N)=O)[C@@H](O)[C@H](Oc2ccc3c(O)c(NC(=O)c4ccc(O)c(CC=C(C)C)c4)c(=O)oc3c2C)OC1(C)C", "strain or isolate": "H37Rv", "read by": "BACTEC", "endpoint": "MIC", "result": "128 µg/mL"}
{"SMILES": "CC(C)CC(C)NCCNCCCCc1ccccc1", "endpoint": "MIC", "result": "50 µM"}
{"SMILES": "O=C(O)CC(O)(c1ccccc1)c1ccccc1", "strain or isolate": "H37Rv", "endpoint": "MIC", "result": "50 µg/mL"}
{"SMILES": "Fc1ccccc1CCNCCNCCc1ccccc1F", "endpoint": "MIC", "result": "25 µM"}
{"SMILES": "COc1ccc2nc3cc(Cl)ccc3c(NC(C)CCN3CCCCC3)c2c1", "strain or isolate": "H37Rv", "endpoint": "MIC", "result": ">100 µg/mL"}
{"SMILES": "CCOC(=O)Nc1cc(NC(C)C(O)COc2ccccc2)c([N+](=O)[O-])c(N)n1", "strain or isolate": "H37Rv", "endpoint": "EC50", "result": ">12.5 µg/mL"}
{"SMILES": "CCCCNC(=S)NNC(=O)c1ccncc1", "strain or isolate": "H37Rv", "read by": "resazurin", "endpoint": "MIC bound", "result": "<6.25 µg/mL"}
{"SMILES": "Fc1cccc(CCNCCNCCCCc2ccccc2)c1", "endpoint": "MIC", "result": "50 µM"}
{"SMILES": "NC[C@H]1O[C@H](O[C@H]2[C@H](O)[C@@H](O[C@H]3O[C@H](CO)[C@@H](O)[C@H](N)[C@H]3O)[C@H](N)C[C@@H]2N)[C@H](O)[C@@H](O)[C@@H]1O", "strain or isolate": "TN4826 (H)", "endpoint": "MIC", "result": ">256 µg/mL"}
{"SMILES": "Nc1nc2c(c(-c3ccc(Cl)cc3)n1)CN(CCC(=O)O)C2=O", "strain or isolate": "H37Rv", "read by": "BACTEC", "endpoint": "MIC bound", "result": ">12.8 µg/mL"}
{"SMILES": "O=c1cc(CO)occ1O", "strain or isolate": "H37Rv", "endpoint": "MIC", "result": ">100 µg/mL"}
{"SMILES": "COc1ccc(N=NC2C(=O)N(C(=O)c3ccncc3)N=C2C)cc1", "strain or isolate": "H37Rv", "read by": "BACTEC", "endpoint": "MIC", "result": "≥12.8 µg/mL"}
{"SMILES": "C[C@@H]1[C@@H](NCCNC(c2ccccc2)c2ccccc2)C[C@H]2C[C@@H]1C2(C)C", "endpoint": "MIC", "result": "50 µM"}
{"SMILES": "c1ccc(Nc2ccccn2)cc1", "strain or isolate": "H37Rv", "endpoint": "MIC", "result": ">100 µg/mL"}
{"SMILES": "O=C(CCCCC(=O)Nc1cc(C2=NCCN2)cc(C2N=CCN2)c1)Nc1cc(C2=NCCN2)cc(C2=NCCN2)c1", "tested at": "6.25 µg/mL", "strain or isolate": "H37Rv", "read by": "resazurin", "endpoint": "inhibition", "result": "61%"}
{"SMILES": "CCCCCCCCCCCNCCNCCc1cccc(F)c1", "endpoint": "MIC", "result": "25 µM"}
{"SMILES": "Oc1ccc2ccncc2c1", "strain or isolate": "H37Rv", "endpoint": "MIC", "result": "25 µg/mL"}
{"SMILES": "COc1ccc(CCNCCNC[C@]2(C)CCC[C@]3(C)c4ccc(C(C)C)cc4CC[C@@H]23)cc1", "endpoint": "MIC", "result": "25 µM"}
{"SMILES": "CC(=O)Nc1ccc(S(=O)(=O)N/N=C/c2ccc(Cl)c(Cl)c2)cc1", "strain or isolate": "H37Rv", "read by": "BACTEC", "endpoint": "MIC", "result": "≥12.5 µg/mL"}
{"SMILES": "CO[C@H]1/C=C/O[C@@]2(C)Oc3c(C)c(O)c4c(O)c(c(/C=N/N5CCN(C/C=C/c6ccccc6)CC5)c(O)c4c3C2=O)NC(=O)/C(C)=C\\C=C\\[C@H](C)[C@H](O)[C@@H](C)[C@@H](O)[C@@H](C)[C@H](OC(C)=O)[C@@H]1C", "strain or isolate": "2912 (rifampin-sensitive)", "endpoint": "MIC", "result": "0.05 µg/mL"}
{"SMILES": "Cc1ccc(Nc2ccc(Nc3ccc(C)c(S(=O)(=O)[O-])c3)c3c2C(=O)c2c(O)ccc(O)c2C3=O)cc1S(=O)(=O)[O-].[Na+].[Na+]", "strain or isolate": "H37Rv", "endpoint": "MIC", "result": ">100 µg/mL"}
{"SMILES": "CC1=NN(C(=O)c2ccncc2)C(=O)C1N=Nc1ccc(-c2ccc(N)cc2)cc1", "strain or isolate": "H37Rv", "read by": "BACTEC", "endpoint": "MIC bound", "result": ">12.8 µg/mL"}
{"SMILES": "Clc1ccc(CCNCCNCc2ccccc2)c(Cl)c1", "endpoint": "MIC", "result": "50 µM"}
{"SMILES": "CCOC(=O)Nc1cc(NCCCCc2ccccc2)c(N)c(N)n1", "strain or isolate": "H37Rv", "endpoint": "EC50", "result": "<12.5 µg/mL"}
{"SMILES": "O=C1Nc2nc3ccccc3n2N=C2CCCC12", "strain or isolate": "H37Rv", "read by": "BACTEC", "endpoint": "MIC bound", "result": ">12.5 µg/mL"}
{"SMILES": "Nc1ccc(-c2nc3ccccc3nc2-c2ccc(N)cc2)cc1", "strain or isolate": "H37Rv", "endpoint": "MIC", "result": ">100 µg/mL"}
{"SMILES": "N#CCC(=O)N/N=C(\\CC1(O)C(=O)Nc2c(Cl)ccc(Cl)c21)c1ccco1", "tested at": "12.5 µg/mL", "strain or isolate": "H37Rv", "read by": "BACTEC", "endpoint": "inhibition", "result": "5%"}
{"SMILES": "CCCCCCCCCCCNCCNC(C)CC", "endpoint": "MIC", "result": "25 µM"}
{"SMILES": "CSc1nnc2c(=O)n(C)c(=O)n(C)c2n1", "strain or isolate": "H37Rv", "read by": "BACTEC", "endpoint": "MIC bound", "result": ">12.5 µg/mL"}
{"SMILES": "O=[N+]([O-])c1cccc(/C=C/c2cccc(/C=C/c3cccc([N+](=O)[O-])c3)n2)c1", "strain or isolate": "H37Rv", "endpoint": "MIC", "result": ">100 µg/mL"}
{"SMILES": "Cc1nc(Nc2ccccc2[N+](=O)[O-])sc1C(=O)CC(=O)C(=O)Nc1c(C(C)C)cccc1C(C)C", "tested at": "6.25 µg/mL", "strain or isolate": "H37Rv", "read by": "resazurin", "endpoint": "inhibition", "result": "10%"}
{"SMILES": "CC(Oc1ccc(C(C)(C)C)cc1)C(=O)O", "strain or isolate": "H37Rv", "endpoint": "MIC", "result": ">100 µg/mL"}
{"SMILES": "Cn1c2c(F)cccc2c(=O)c2c(O)cc3c(c21)C=CC(C)(C)O3", "strain or isolate": "H37Rv", "read by": "BACTEC", "endpoint": "MIC bound", "result": ">12.5 µg/mL"}
{"SMILES": "COc1ccc2c(c1OC)C(=O)O[C@@H]2[C@H]1c2c(cc3c(c2OC)OCO3)CCN1C", "strain or isolate": "H37Rv", "endpoint": "MIC", "result": ">100 µg/mL"}
{"SMILES": "CC(=O)NC(=O)NC1=NCCC(=O)N1CCc1c[nH]c2ccccc12", "strain or isolate": "H37Rv", "read by": "BACTEC", "endpoint": "MIC bound", "result": ">12.5 µg/mL"}
{"SMILES": "CC1(C)[C@H]2CC[C@@H](CNCCNCC(c3ccccc3)c3ccccc3)[C@@H]1C2", "endpoint": "MIC", "result": "3.13 µM"}
{"SMILES": "CCC12OC(COc3ccccc3)CN1CCN2c1ccccc1", "strain or isolate": "H37Rv", "read by": "BACTEC", "endpoint": "MIC bound", "result": ">12.5 µg/mL"}
{"SMILES": "CCCCC(CC)CN1CN(CC(CC)CCCC)CC(C)(NCCN[C@H](CO)Cc2ccc(Cl)cc2)C1", "endpoint": "MIC", "result": "12.5 µM"}

Repeating the final 8 entries:

SMILES,tested at,strain or isolate,read by,endpoint,result
Cc1nc(Nc2ccccc2[N+](=O)[O-])sc1C(=O)CC(=O)C(=O)Nc1c(C(C)C)cccc1C(C)C,6.25 µg/mL,H37Rv,resazurin,inhibition,10%
CC(Oc1ccc(C(C)(C)C)cc1)C(=O)O,,H37Rv,,MIC,>100 µg/mL
Cn1c2c(F)cccc2c(=O)c2c(O)cc3c(c21)C=CC(C)(C)O3,,H37Rv,BACTEC,MIC bound,>12.5 µg/mL
COc1ccc2c(c1OC)C(=O)O[C@@H]2[C@H]1c2c(cc3c(c2OC)OCO3)CCN1C,,H37Rv,,MIC,>100 µg/mL
CC(=O)NC(=O)NC1=NCCC(=O)N1CCc1c[nH]c2ccccc12,,H37Rv,BACTEC,MIC bound,>12.5 µg/mL
CC1(C)[C@H]2CC[C@@H](CNCCNCC(c3ccccc3)c3ccccc3)[C@@H]1C2,,,,MIC,3.13 µM
CCC12OC(COc3ccccc3)CN1CCN2c1ccccc1,,H37Rv,BACTEC,MIC bound,>12.5 µg/mL
CCCCC(CC)CN1CN(CC(CC)CCCC)CC(C)(NCCN[C@H](CO)Cc2ccc(Cl)cc2)C1,,,,MIC,12.5 µM

ECn: concentration that inhibits the pathogen or its effect by n%. Inhibition is in % at the dose shown (toxicity tests: loss of growth or viability). An empty or dashed field is not shown. MIC bound: limit read from a one-dose screen.